In the experiment the target is CAHexamer (disulfide-stabilised HIV-1 capsid hexamer) (Human immunodeficiency virus type 1 group M subtype B, UniProt P12493, A146C/E177C/M317A/W316A). The experiment is classed as binding. The note with it: read-out: affinity (Kd) for CAHexamer; pH 7.2.

pKd: −log10 of the molar value.

Turning to “BODIPY-labelled GTP-γ-S [reference compound]”, the pKd is 7.85.

The values are drawn from article PMC4998957 (Nature, 2016).
